From patent US20260069689A1, “ANTI-SARS-COV-2-SPIKE GLYCOPROTEIN ANTIBODIES AND ANTIGEN-BINDING FRAGMENTS” (Regeneron, published 2026)

B1: mAb14256 (antibody)
heavy: not shown
light: QSVLTQPPSVSGAPGQRVTISCTGSSSNIGTHYDVHWYQQLPGTAPKLLIYGNSNRPSGVPDRFSGSKSGTSASLAITGLQAEDEADYYCQSFDNSLTAPYVFGTGTKVTVLGQPKAAPSVTLFPPSSEELQANKATLVCLISDFYPGAVTVAWKADSSPVKAGVETTTPSKQSNNKYAASSYLSLTPEQWKSHRSYSCQVTHEGSTVEKTVAPTECS
B2: mAb15166 (antibody, V domains shown)
VH: EVQLVESGGGLVQPGGSLRLSCAASGFTVTSNYMSWVRQAPGKGLEWVSAIYSGESTYYADSVKGRFTISRDSSKNTLYLQMNSLRVEDTAVYYCASIHDYSNYVGGFDPWGQGTLVTVSS
VL: QSALTQPASVSGSPGQSITISCTGPSSDFGSYNLVSWYQQHPGKAPKLMIYEGTKRPSGVSNRFSGSKSGNTASLTISGLQAEDEADYYCSSYAGSSTWVFGGGTKLTVLG
B3: mAb15167 (antibody, V domains shown)
VH: QVQLQESGPGLVKPSETLSLTCTVSGGSISGYYWSWIRQPPGKGLEWIGYIYYSGSTNYNPSLKSRVTMSVDTSKNQFSLKLSSVTAADTAVYYCARYPLYSESSGYHFDYWGHGTLVTVSS
VL: B2 VL with P25T, F29V, H41D, I50L, G53D, T54S, S96R

Assays:
[1] = biological target: T1, SARS-CoV-2 spike protein, wild-type (Wuhan-Hu-1) or D614G control (SARS-CoV-2); experiment: cell-based or functional assay
[2] = biological target: T1, SARS-CoV-2 spike protein, wild-type …; experiment: cell-based or functional assay; remark: listed apart in the source

Binder	IC50 (pseudoparticle neutralization) [1] [nM]	IC50 (pseudoparticle neutralization) [2] [nM]
B1	0.0547	0.0261
B2	0.0161	
B3	0.0295	

Where a chain is given by its changes, count along the chain named. Read-outs that look alike come from different tables or passages of the source.
